Anti-infective test results gathered from many reports (values: NIAID ChemDB through PubChem).

Shared fields: tests in culture; organism: HIV-1; method: cytopathic effect; endpoint: EC50

An empty or dashed field is not shown.

structure | cell line | mutations | strain | value
Cc1cn([C@H]2C=C[C@@H](OCP(=O)(O)O)O2)c(=O)[nH]c1=O | MT-4 | - | - | 12 µM
Nc1ccn([C@H]2CO[C@@H](CO)O2)c(=O)n1 | MT-4 | - | - | 0.175 µM
CC1(C)[C@@H](CCO)C[C@H]1n1nnc2c(Cl)nc(N)nc21 | CEM | - | - | >4 µg/mL
CC(C)(C)C(=O)OC[C@@H]1CC[C@H](n2ccc(N)nc2=O)O1 | - | - | - | <6.4 µM
Nc1ccn(C(CF)CCCO)c(=O)n1 | CEM | - | IIIB | >100 µg/mL
COc1c(OC(C)=O)cc2c(c1O)-c1c(cc(O)c(OC)c1OC)C[C@@H](C)[C@@H](C)C2 | C8166 | - | - | 3.24 µg/mL
CSc1nsc(-c2ccccc2)c1C#N | MT-4 | - | IIIB | >125 µg/mL
Cc1ccccc1Cn1c(=O)ccn(CC#N)c1=O | PBMC | - | IIIB | 192 µM
Cc1cn([C@H]2C=C[C@@H](CO)O2)c(=O)[nH]c1=O | CEM + CEM/O | - | - | 0.2 µM
O=C1c2ccccc2N(COCc2ccccc2)S(=O)(=O)N1Cc1ccccc1 | MT-4 | - | IIIB | 5.8–7.2 µM
C[N+]1(C)CC2c3cc4c5c6c3-c3c(cc7c8c3C63C[N+](C)(C)CC36C3=C5C(C4)Cc4ccc5cc(c-8c6c5c43)C7)C2C1 | CEM | - | IIIB | >25 µM
Cc1ccc(C(C)S(=O)(=O)c2c(C)ccc[n+]2[O-])c(C)c1 | CEM | - | IIIB | 3.4 µg/mL
Cc1[nH]c2ccccc2c1CC(=O)N[C@@H](Cc1ccccc1)C(=O)N(C)c1ccccn1 | - | T107N | NL4-3 | 24 µM
Cc1cn([C@H]2C[C@H](N=[N+]=[N-])[C@@H](CO)O2)c(=O)[nH]c1=O | MT-4 | - | IIIB | 0.0003 µg/mL
OCCN1CC[C@H](O)[C@@H](O)C1 | CEM + CEM-SS | - | BRU | 12 µg/mL
CCC(=O)OC[C@@H]1CC[C@H](n2ccc(N)nc2=O)O1 | - | - | - | 1.6 µM
CC(=O)OCCCc1cc(Sc2cc(C)cc(C)c2)c([N+](=O)[O-])c(=O)[nH]1 | CEM + CEM-SS | - | LAI | 1 µM
Nc1ccn([C@H]2CC[C@@H](COCP(=O)([O-])[O-])O2)c(=O)n1 | MT-4 | - | IIIB | 500 µM
O=C(/C=C(\O)c1cccc(O)c1)c1nc2ccccc2[nH]1 | MT-4 | - | IIIB | 7.1 µM
Cc1cn([C@H]2C[C@H](N=[N+]=[N-])[C@@H](COC(=O)NC(=O)CCCC(=O)O)O2)c(=O)[nH]c1=O | MOLT-4 | - | LAI | 0.034 µM
O=C1c2ccccc2N(Cc2ccc(Cl)c(Cl)c2)S(=O)(=O)N1Cc1ccccc1 | MT-4 | - | IIIB | 2.4–7.6 µM
Cc1ccccc1CNC(=O)[C@H]1N(C(=O)[C@@H](OC(=O)CCCC(=O)NCCC(=O)OC[C@H]2O[C@@H](n3cc(C)c(=O)[nH]c3=O)C[C@@H]2N=[N+]=[N-])[C@H](Cc2ccccc2)NC(=O)COc2c(C)cccc2C)CSC1(C)C | MOLT-4 | - | LAI | 0.03 µM
CC(C)(C)[Si](C)(C)OC[C@H]1O[C@@H](n2ccc(=O)[nH]c2=O)[C@H](O[Si](C)(C)C(C)(C)C)[C@H]1C#N | MT-4 | - | IIIB | >0.64 µM
O=c1ccn([C@H]2CS[C@@H](CO)O2)c(=O)[nH]1 | MT-4 | - | - | >435 µM
Cc1ccccc1CNC(=O)[C@H]1N(C(=O)[C@@H](OC(=O)CCCC(=O)NCC(=O)OC[C@@H]2O[C@H](n3cc(C)c(=O)[nH]c3=O)C[C@H]2N=[N+]=[N-])[C@H](Cc2ccccc2)NC(=O)COc2c(C)cccc2C)CSC1(C)C | MOLT-4 | - | LAI | 0.0008 µM
C#CCn1ccc(=O)n(Cc2cc(C)cc(C)c2)c1=O | PBMC | - | IIIB | 1.08 µM
Cc1cccc(C)c1C1SCC(=O)N1Cc1ccco1 | MT-4 | - | IIIB | 7.8 µM
Nc1nc2c(ncn2[C@H]2C=C[C@@H](CO)C2)c(=O)[nH]1 | JM | - | - | 0.13 µg/mL
Nc1nc2c(ncn2[C@H]2C=C[C@@H](OCP(=O)(O)O)C2(F)F)c(=O)[nH]1 | MT-4 | - | - | 32 µM
CC1(C)[C@@H](CCO)C[C@H]1n1nnc2c(=O)[nH]cnc21 | MT-4 | - | - | >100 µg/mL
CC[Si]1(C(C)C)O[C@H]2[C@@H](O)[C@H](c3ccccc3)O[C@@H]2CO[Si](C(C)C)(C(C)C)O1 | CEM | - | IIIB | >4 µg/mL
Nc1nc2c(ncn2CCCC(O)CF)c(=O)[nH]1 | CEM | - | IIIB | >100 µg/mL
Cc1cn([C@H]2C=C[C@@H](COC(=O)CC3(C)C[C@](C)(O)CO3)O2)c(=O)[nH]c1=O | C8166 | - | - | 8 µM
N#Cc1c(SCCCSc2nsc(-c3ccccc3)c2C#N)nsc1-c1ccccc1 | MT-4 | - | IIIB | >125 µg/mL
COc1cc2c(c(O)c1OC)-c1c(cc(OC(C)=O)c(OC)c1O)C[C@@H](C)[C@@H](C)C2 | C8166 | - | - | 1.42 µg/mL
Cc1cn([C@@H]2OC(O[Si](C)(C)C(C)(C)C)C3(OS(=O)(=O)C=C3NCCC(=O)OCc3ccccc3)C2O[Si](C)(C)C(C)(C)C)c(=O)n(C)c1=O | MT-4 | - | IIIB | >250 µM
O=C1CSC(c2c(Cl)cccc2Cl)N1Cc1ccco1 | MT-4 | - | IIIB | 0.204 µM
Nc1ccn([C@@H]2CO[C@@H](CO)O2)c(=O)n1 | MT-4 | - | - | >437 µM
Cc1ccc(C)c(CS(=O)c2ccc(Cl)c[n+]2[O-])c1 | CEM | - | IIIB | 2 µg/mL
C#CCOCN1c2ccccc2C(=O)N(Cc2ccccc2)S1(=O)=O | MT-4 | - | IIIB | >10 µM
Cc1cc(C)c(CS(=O)c2cccc[n+]2[O-])c(C)c1 | CEM | - | MN | 7.6 µg/mL
O=C1CSC(c2c(F)c(F)c(F)c(F)c2F)N1Cc1ccco1 | MT-4 | - | IIIB | 46.85 µM
CC1(C)[C@@H](CCO)C[C@H]1n1cnc2c(N)ncnc21 | MT-4 | - | - | >250 µg/mL
Cc1cc(C)cc(Cn2c(=O)ccn(Cc3ccccc3)c2=O)c1 | PBMC | - | IIIB | 0.234 µM
O=C1c2ccccc2N(Cc2ccccc2)S(=O)(=O)N1COCc1ccccc1 | MT-4 | - | IIIB | 7.9–22.1 µM
COc1ccc(/C=N/N=C(\N)NO)c(Cl)c1O.Cc1ccc(S(=O)(=O)O)cc1 | CEM | - | IIIB | 4.5 µg/mL
Cc1cn([C@H]2CC[C@@H](COCP(=O)([O-])[O-])O2)c(=O)[nH]c1=O | MT-4 | - | IIIB | >500 µM
Cc1cn(CCO[C@@H]2O[C@H](CO)[C@@H](N=[N+]=[N-])[C@H]2O)c(=O)[nH]c1=O | MT-4 | - | IIIB | >100 µg/mL
CO[C@@H]1[C@H](O)[C@@H](CO)O[C@H]1c1ccccc1 | CEM | - | IIIB | >100 µg/mL
COP(=O)(c1cc(C)cc(CCC#N)c1)c1c(C(N)=O)[nH]c2ccc(Cl)cc12 | MT-4 | Y181C | IIIB | 0.0021 µM
Cc1cn([C@H]2C=C[C@@H](CO)O2)c(=O)[nH]c1=O | CEM | - | - | 0.65 µM
Nc1nc2c(ncn2[C@H]2CO[C@@H](CCP(=O)(O)O)O2)c(=O)[nH]1 | MT-4 | - | - | 6.8 µg/mL
COc1ccc(/C=N/N=C(\N)NO)cc1F | CEM | - | IIIB | 6.6 µg/mL
O=C(O)CCC(CCC(=O)O)(CCC(=O)O)NC(=O)CCC(CCC(=O)NC(CCC(=O)O)(CCC(=O)O)CCC(=O)O)(CCC(=O)NC(CCC(=O)O)(CCC(=O)O)CCC(=O)O)NC(=O)CCCOC(=O)C1(C(=O)OCCCC(=O)NC(CCC(=O)NC(CCC(=O)O)(CCC(=O)O)CCC(=O)O)(CCC(=O)NC(CCC(=O)O)(CCC(=O)O)CCC(=O)O)CCC(=O)NC(CCC(=O)O)(CCC(=O)O)CCC(=O)O)C2c3cc4c5c6c3-c3c(cc7c8c3C6C3c6c-5c(cc5ccc9cc(c-8c3c9c65)C7)C4)C21 | PBMC | - | AZT/3TC-resistant (RT M184V T215Y) | 0.58 µM
O=c1[nH]cnc2c1[nH]c[n+]2[C@@H]1CS[C@@H](CO)O1 | MT-4 | - | - | >410 µM
CN1CC[C@H](O)[C@@H](O)C1 | CEM + CEM-SS | - | BRU | >100 µg/mL
Cc1cc(C)cc(Cn2c(=O)ccn(Cc3c(F)cccc3F)c2=O)c1 | PBMC | - | IIIB | 0.115 µM
CC(C)c1nc(CN(C)C(=O)N[C@H](C(=O)N[C@@H](Cc2ccccc2)C[C@H](O)[C@H](Cc2ccccc2)NC(=O)OCc2cncs2)C(C)C)cs1 | MT-4 | - | IIIB | 0.039 µg/mL
COc1cc([C@H](O)[C@H](CO)Oc2c(OC)cc(C(=O)CCO)cc2OC)ccc1O | - | - | - | 2.64 µg/mL
Cc1ccccc1CNC(=O)[C@H]1N(C(=O)[C@@H](OC(=O)CCC(=O)NCCC(=O)OC[C@@H]2O[C@H](n3cc(C)c(=O)[nH]c3=O)C[C@H]2N=[N+]=[N-])[C@H](Cc2ccccc2)NC(=O)COc2c(C)cccc2C)CSC1(C)C | MOLT-4 | - | LAI | 0.0231 µM
O[C@H]1CCNC[C@@H]1O | CEM + CEM-SS | - | BRU | 2.7 µg/mL
Cc1cccc(-c2ccccc2)c1Nc1nc(N(C)Cc2ccc3c(c2)CCO3)nc(=O)[nH]1 | CEM-SS | - | NL4-3 | 0.05 µM
CC1=C[C@@H]([C@H]2O[C@@H]3Cc4c(ccc5c4C=C[C@H]4C(C)(C)O[C@@H]6CC(=O)O[C@@]64C5)[C@@H]3[C@@H]2C)OC1=O | MT-4 | - | IIIB | ~19.7 µg/mL
Nc1ccn([C@@H]2CO[C@H](CO)O2)c(=O)n1 | MT-4 | - | - | >0.465 µM
N#CCn1ccc(=O)n(Cc2cc(Cl)cc(Cl)c2)c1=O | PBMC | - | IIIB | 0.77 µM

Repeating the first 9 entries:

{"structure": "Cc1cn([C@H]2C=C[C@@H](OCP(=O)(O)O)O2)c(=O)[nH]c1=O", "cell line": "MT-4", "value": "12 µM"}
{"structure": "Nc1ccn([C@H]2CO[C@@H](CO)O2)c(=O)n1", "cell line": "MT-4", "value": "0.175 µM"}
{"structure": "CC1(C)[C@@H](CCO)C[C@H]1n1nnc2c(Cl)nc(N)nc21", "cell line": "CEM", "value": ">4 µg/mL"}
{"structure": "CC(C)(C)C(=O)OC[C@@H]1CC[C@H](n2ccc(N)nc2=O)O1", "value": "<6.4 µM"}
{"structure": "Nc1ccn(C(CF)CCCO)c(=O)n1", "cell line": "CEM", "strain": "IIIB", "value": ">100 µg/mL"}
{"structure": "COc1c(OC(C)=O)cc2c(c1O)-c1c(cc(O)c(OC)c1OC)C[C@@H](C)[C@@H](C)C2", "cell line": "C8166", "value": "3.24 µg/mL"}
{"structure": "CSc1nsc(-c2ccccc2)c1C#N", "cell line": "MT-4", "strain": "IIIB", "value": ">125 µg/mL"}
{"structure": "Cc1ccccc1Cn1c(=O)ccn(CC#N)c1=O", "cell line": "PBMC", "strain": "IIIB", "value": "192 µM"}
{"structure": "Cc1cn([C@H]2C=C[C@@H](CO)O2)c(=O)[nH]c1=O", "cell line": "CEM + CEM/O", "value": "0.2 µM"}

Two numbers with a dash give a range or band. ECn is the concentration giving n% inhibition of infection, replication or growth. Rows are shuffled and stem from different studies.